The record followed here is patent US8067442B2, “Heterocyclic antiviral compounds” (Roche Palo Alto LLC, priority 2008, dated 2011).

In the test the target is HCV polymerase (NS5B570n-Con1) (Hepatitis C virus genotype 1b, UniProt Q9WMX2). The following applies: read-out: IC50, NS5B polymerase assay; Table I; cIRES template unless otherwise noted.

As to `CN1CCCN(C(=O)c2coc3c(C(C)(C)C)cc(-c4ccc[nH]c4=O)cc23)CC1`, the concentration for half-maximal inhibition (IC50) (commonly the concentration that gives 50% inhibition) came out at 1540 nM.

Consider `CC(C)(C)c1cc(-c2ccc[nH]c2=O)cc2c(-c3ccc(CN)cc3)coc12`, for which the IC50 turned out to be 349 nM.

`CC(C)(C)OC(=O)NCC1CCCN(C(=O)c2coc3c(C(C)(C)C)cc(-c4ccc[nH]c4=O)cc23)C1` (centres unmarked): the IC50 came out at 1700 nM.

`CC(C)(C)c1cc(-c2ccc[nH]c2=O)cc2c(C(=O)N3CC(CNS(C)(=O)=O)C3)coc12`: the IC50 is 83 nM.

Consider `CC(C)(C)c1cc(-c2ccc[nH]c2=O)cc2c(C(=O)N3CCC[C@@H](NS(C)(=O)=O)C3)coc12`, for which the half-maximal inhibitory concentration (IC50) was 194 nM.

In the case of `CC(C)(C)c1cc(-c2ccc[nH]c2=O)cc2c(C(=O)N3CCC(N)CC3)coc12`, the concentration for half-maximal inhibition (IC50) is 24 nM.

`CC(C)(C)c1cc(-c2ccc[nH]c2=O)cc2c(C(=O)Nc3cccc(O)c3)coc12`: the half-inhibitory concentration (IC50) amounted to 1890 nM.

Take `CC(C)(C)c1cc(-c2ccc[nH]c2=O)cc2c(C(=O)N3CCC[C@@H]3CO)coc12`: the half-maximal inhibitory concentration (IC50) worked out at 190 nM.
